Only a part is listed here, and it is no random draw. The source made the active and inactive calls. No stated cut-off is given here; in the data, active means survival mostly below about 52% (no sharp cut-off); inactive means mostly above about 56%.
System: DeltatarO mutant
Experiment: growth inhibition of S. aureus wild type versus tarO mutant, primary screen, teichoic acid synthesis inhibitors, RN4220, OD600 (AID 463173)
Settings: OD600, 18 h, active compounds read low, screened at 18.75 µg/mL (by protocol)

Row | SMILES | survival
1 | CC(C)(C)c1ccc(C(=O)NCC2(N3CCOCC3)CCCCC2)cc1 | inactive: 95%
2 | Cc1ccccc1C(=O)NCC1(N(C)C)CCCCC1 | inactive: 81%
3 | CN(C)C1(CNC(=O)c2ccc(C(C)(C)C)cc2)CCCCC1 | inactive: 89%
4 | COc1cc(C(=O)NCC2(N3CCOCC3)CCCCC2)cc(OC)c1OC | inactive: 99%
5 | O=C(NCC1(N2CCOCC2)CCCCC1)c1ccccc1 | inactive: 94%
6 | O=C(NCC1(N2CCOCC2)CCCCC1)c1ccc([N+](=O)[O-])cc1 | inactive: 94%
7 | O=C(NCC1(N2CCOCC2)CCCCC1)c1ccccc1[N+](=O)[O-] | inactive: 92%
8 | CCCOc1cccc(C(=O)NCC2(N3CCOCC3)CCCCC2)c1 | inactive: 62%
9 | CCOc1ccc(C(=O)NCC2(N3CCOCC3)CCCCC2)cc1 | inactive: 98%
10 | CCCCOc1ccccc1C(=O)NCC1(N2CCOCC2)CCCCC1 | inactive: 68%
11 | O=C(NCC1(N2CCOCC2)CCCCC1)c1ccccc1Br | inactive: 87%
12 | O=C(NCC1(N2CCOCC2)CCCCC1)c1ccc(Cl)cc1 | inactive: 103%
13 | COc1ccccc1C(=O)NCC1(N2CCOCC2)CCCCC1 | inactive: 90%
